Compound potency records, mixed from different reports. Data source: NIAID ChemDB in PubChem.

Common to all: whole-cell or culture tests; organism: Aspergillus niger; read-out: MIC

Rows are shuffled and stem from different studies.

compound | strain | result
Oc1cc(Br)cc2cccnc12 | ATCC 1004 | <1 µg/mL
COC(=O)[C@]1(C)CCC[C@]2(C)c3ccc(C(C)C)cc3-c3[nH]c4c(OC)cccc4c3C12 | CGMCC3.316 | >100 µg/mL
O=C1CCC(c2ccccc2)C(=O)N1CCCN1CCN(c2ccccn2)CC1 | DSM 1988 | >100 µM
COC(=O)[C@]1(C)CCC[C@]2(C)c3ccc(C(C)C)cc3-c3[nH]c4ccccc4c3C12 | CGMCC3.316 | >100 µg/mL
Oc1cccc2c(Br)ccnc12 | ATCC 1004 | 3 µg/mL
O=C1CCC(c2ccccc2)C(=O)N1CCCCN1CCN(c2ccccn2)CC1 | DSM 1988 | >100 µM
N#[N+]c1nc(-c2cccc(Cl)c2)[nH]c1C(=O)N1CCCC1 | L32 | >200 µg/mL
Oc1cc(Cl)cc2cccnc12 | ATCC 1004 | <1 µg/mL
N#[N+]c1nc(-c2ccc(Cl)cc2Cl)[nH]c1C(=O)N1CCCC1 | L32 | 100 µg/mL
Oc1ccc(Cl)c2cccnc12 | ATCC 1004 | 3 µg/mL
N#[N+]c1nc(-c2ccc(F)cc2F)[nH]c1C(=O)N1CCCC1 | L32 | >200 µg/mL
Oc1ccc(Br)c2cccnc12 | ATCC 1004 | 3 µg/mL
COC(=O)[C@]1(C)CCC[C@]2(C)c3ccc(C(C)C)cc3-c3[nH]c4ccc(OC)cc4c3C12 | CGMCC3.316 | >100 µg/mL
CC(C)c1nc([N+]#N)c(C(=O)N2CCCC2)[nH]1 | L32 | >200 µg/mL
O=C1CCC(c2ccccc2)C(=O)N1CCCCN1CCN(c2ccccc2)CC1 | DSM 1988 | >100 µM
COC(=O)[C@]1(C)CCC[C@]2(C)c3ccc(C(C)C)cc3-c3[nH]c4ccc(C)cc4c3C12 | CGMCC3.316 | >100 µg/mL
N#[N+]c1nc(-c2ccc(F)cc2)[nH]c1C(=O)N1CCCC1 | L32 | 25 µg/mL
O=C1CCC(c2ccccc2)C(=O)N1CCCCN1CCN(c2ccc(F)cc2)CC1 | DSM 1988 | >100 µM
COC(=O)[C@]1(C)CCC[C@]2(C)c3ccc(C(C)C)cc3-c3[nH]c4c(C)cccc4c3C12 | CGMCC3.316 | >100 µg/mL
N#[N+]c1nc(-c2ccccc2)[nH]c1C(=O)N1CCCC1 | L32 | >200 µg/mL

The first 2 rows once more:

compound | strain | result
Oc1cc(Br)cc2cccnc12 | ATCC 1004 | <1 µg/mL
COC(=O)[C@]1(C)CCC[C@]2(C)c3ccc(C(C)C)cc3-c3[nH]c4c(OC)cccc4c3C12 | CGMCC3.316 | >100 µg/mL